Compound potency records, mixed from different reports. Data source: NIAID ChemDB in PubChem.

Common to all: growth or infection tests; agent: Mycobacterium kansasii

A number after MIC or MFC names an inhibition level or a share of isolates.

{"smiles": "O=C(NNC(=O)c1ccncc1)Nc1ccc(Br)c(F)c1", "strain or isolate": "My 6509/96", "method": "broth dilution", "setting": "21 d", "read-out": "MIC100", "value": ">125 µM"}
{"smiles": "O=C(Nc1cccc(C(F)(F)F)c1)c1ccc(Cl)cc1OS(=O)(=O)c1ccccc1", "strain or isolate": "6509/96", "setting": "14 d", "read-out": "MIC", "value": "125 µM"}
{"smiles": "CCCCCCCc1ccc(NC(=O)NNC(=O)c2ccncc2)cc1", "strain or isolate": "My 235/80", "method": "broth dilution", "setting": "7 d", "read-out": "MIC100", "value": "32 µM"}
{"smiles": "COc1ccc2oc(=S)n(-c3cccc(Cl)c3)c(=S)c2c1", "strain or isolate": "6509/96", "setting": "21 d", "read-out": "MIC", "value": "8 µM"}
{"smiles": "COc1ccc(Nc2nnc(-c3ccncc3)o2)cc1", "strain or isolate": "My 235/80", "method": "broth dilution", "setting": "14 d", "read-out": "MIC100", "value": ">125 µM"}
{"smiles": "O=C(Nc1ccc(C(F)(F)F)cc1)c1cc(Cl)ccc1OS(=O)(=O)c1ccccc1", "strain or isolate": "6509/96", "setting": "7 d", "read-out": "MIC", "value": "125 µM"}
{"smiles": "O=C(Oc1ccc(Cl)cc1C(=O)Nc1ccc(Br)cc1)c1cnccn1", "strain or isolate": "6509/96", "setting": "21 d", "read-out": "MIC", "value": "4 µM"}
{"smiles": "O=C(NNC(=O)c1ccncc1)Nc1ccc(F)cc1Br", "strain or isolate": "My 6509/96", "method": "broth dilution", "setting": "21 d", "read-out": "MIC100", "value": ">125 µM"}
{"smiles": "O=C(Nc1cccc(Cl)c1)c1ccc(Cl)cc1OS(=O)(=O)c1ccccc1", "strain or isolate": "235/80", "setting": "7 d", "read-out": "MIC", "value": "16 µM"}
{"smiles": "NNC(=O)c1ccncc1", "strain or isolate": "235/80", "setting": "21 d", "read-out": "MIC", "value": ">250 µM"}
{"smiles": "Cc1ccc2oc(=S)n(-c3cccc(Cl)c3)c(=S)c2c1", "strain or isolate": "6509/96", "setting": "14 d", "read-out": "MIC", "value": "2 µM"}
{"smiles": "O=C(Nc1cccc(Br)c1)c1ccc(Cl)cc1OS(=O)(=O)c1ccccc1", "strain or isolate": "6509/96", "setting": "21 d", "read-out": "MIC", "value": "125 µM"}
{"smiles": "Cc1ccc2oc(=O)n(-c3ccc(Cl)cc3)c(=S)c2c1", "strain or isolate": "My 235/80", "setting": "21 d", "read-out": "MIC", "value": "4 µM"}
{"smiles": "O=C(NNC(=O)c1ccncc1)Nc1ccc(Br)cc1F", "strain or isolate": "My 6509/96", "method": "broth dilution", "setting": "7 d", "read-out": "MIC100", "value": "125 µM"}
{"smiles": "O=C(Nc1cccc(F)c1)c1ccc(Cl)cc1OS(=O)(=O)c1ccccc1", "strain or isolate": "235/80", "setting": "7 d", "read-out": "MIC", "value": "16 µM"}
{"smiles": "Cc1ccc2oc(=S)n(-c3ccc(C(F)(F)F)cc3)c(=S)c2c1", "strain or isolate": "6509/96", "setting": "14 d", "read-out": "MIC", "value": "16 µM"}
{"smiles": "O=C(Nc1ccc(Cl)c(Cl)c1)c1ccc(Cl)cc1OS(=O)(=O)c1ccccc1", "strain or isolate": "6509/96", "setting": "7 d", "read-out": "MIC", "value": "8 µM"}
{"smiles": "O=C(NC1CCCCC1)N(C(=O)c1cnccn1)C1CCCCC1", "strain or isolate": "6509/96", "setting": "7 d", "read-out": "MIC", "value": "500 µM"}
{"smiles": "O=C(NNC(=O)c1ccncc1)Nc1ccc(Cl)c(Cl)c1", "strain or isolate": "My 6509/96", "method": "broth dilution", "setting": "7 d", "read-out": "MIC100", "value": "125 µM"}
{"smiles": "O=C(Oc1cc(Cl)ccc1C(=O)Nc1ccc(F)cc1)c1cnccn1", "strain or isolate": "235/80", "setting": "14 d", "read-out": "MIC", "value": "4 µM"}
{"smiles": "CCCCCCc1ccc(NC(=O)NNC(=O)c2ccncc2)cc1", "strain or isolate": "My 6509/96", "method": "broth dilution", "setting": "21 d", "read-out": "MIC100", "value": "125 µM"}
{"smiles": "O=C(Oc1ccc(Cl)cc1C(=O)Nc1ccc(C(F)(F)F)cc1)c1cnccn1", "strain or isolate": "6509/96", "setting": "21 d", "read-out": "MIC", "value": "2 µM"}
{"smiles": "Cc1ccc2oc(=S)n(-c3cccc(F)c3)c(=S)c2c1", "strain or isolate": "6509/96", "setting": "14 d", "read-out": "MIC", "value": "8 µM"}
{"smiles": "O=C(Oc1cc(Cl)ccc1C(=O)Nc1ccc(Cl)cc1)c1cnccn1", "strain or isolate": "235/80", "setting": "7 d", "read-out": "MIC", "value": "2 µM"}
{"smiles": "Clc1ccc(Nc2nnc(-c3ccncc3)o2)cc1Cl", "strain or isolate": "My 6509/96", "method": "broth dilution", "setting": "7 d", "read-out": "MIC100", "value": ">125 µM"}
{"smiles": "O=C(Oc1cc(Cl)ccc1C(=O)Nc1ccc(Cl)c(Cl)c1)c1cnccn1", "strain or isolate": "6509/96", "setting": "21 d", "read-out": "MIC", "value": "4 µM"}
{"smiles": "O=C(NNC(=O)c1ccncc1)Nc1ccc(C(F)(F)F)cc1", "strain or isolate": "My 235/80", "method": "broth dilution", "setting": "7 d", "read-out": "MIC100", "value": ">125 µM"}

Repeating the first 2 entries:

{"smiles": "O=C(NNC(=O)c1ccncc1)Nc1ccc(Br)c(F)c1", "strain or isolate": "My 6509/96", "method": "broth dilution", "setting": "21 d", "read-out": "MIC100", "value": ">125 µM"}
{"smiles": "O=C(Nc1cccc(C(F)(F)F)c1)c1ccc(Cl)cc1OS(=O)(=O)c1ccccc1", "strain or isolate": "6509/96", "setting": "14 d", "read-out": "MIC", "value": "125 µM"}

Conditions beyond the fields shown may differ between rows.